This note sets out measurements from paper doi:10.1101/2024.08.19.608619, “Discovery of potent SARS-CoV-2 nsp3 macrodomain inhibitors uncovers lack of translation to cellular antiviral response” (bioRxiv, 2024).

The test system of the assay is MERS-CoV. Nature of the assay: Vero E6/TMPRSS2 MERS-CoV antiviral effect with P-gp inhibitor. It is filed as cell-based.

A number of entries come with more than one value. This is not the full list of results. The source may hold further records. The values listed for one entry differ for a reason that is not stated; some may be repeats, others may stem from another dose, organism or construct than stated.

Regarding `CC(C)[C@H](Nc1ncnc2[nH]ccc12)c1ccc2c(c1)S(=O)(=O)CCC2` [ASAP-0008674], the concentration giving a half-maximal response (EC50) was > 20 µM and > 5 µM. Further, for the setting “minimum measured response of dose series”, the perc_min_measured is given as 42.601%, 29.019%, 95.686%.

What is called EC50 is the concentration giving half of the maximal effect. Low values mean a more potent agent, high ones a less potent agent.
